Data: patent US20070161078A1 (ARBOR VITA, published 2007)

How the values were obtained:
Test in all cases: G assay (ELISA), AVC database
KIAA1284 d1 = molecular target: T1, KIAA1284 d1 (human, UniProt Q9ULD6 179-268)
T1 construct: domain: PDZ d1
T1 sequence (looked up): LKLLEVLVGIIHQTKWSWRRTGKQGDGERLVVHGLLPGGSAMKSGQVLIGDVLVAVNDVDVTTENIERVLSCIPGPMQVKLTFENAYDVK

GORASP d1 = molecular target: T2, GORASP d1 (human, UniProt Q9BQQ3 1-108)
T2 construct: domain: PDZ d1; also called GoRasp1 d1

Lim Mystique d1 = molecular target: T3, Lim Mystique d1 (human, UniProt Q96JY6 1-89)
T3 construct: domain: PDZ d1; also called Lym Mystique (PDZ #1)
T3 sequence (looked up): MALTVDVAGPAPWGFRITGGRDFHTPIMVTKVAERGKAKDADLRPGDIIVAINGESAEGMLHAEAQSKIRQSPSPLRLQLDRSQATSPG

DLG2 d1 = molecular target: T4, DLG2 d1 (human, UniProt Q15700 92-189)
T4 construct: domain: PDZ d1; also called DLG2 (PDZ #1)

Measured: binding result

KKKKQPGNSTKESESTNSVRLML (also called 1820) [TRPM7 (printed as 23-mer KKKKQPG...)]
binds: all assays above
